Patent US12564622B2, “Preventing cytokine release syndrome” (priority 2017, dated 2026)

Tested on: Raji-bearing NSGS mice with low tumour burden treated with hCART19
Experiment: hCART19 treatment of Raji-bearing NSGS mice, low tumour burden
Format: in vivo, mouse (NSGS)
From the text: Six to eight weeks old female NSG-SGM3 (NSGS) mice (NOD.Cg-Prkdcscid Il2rgtm1WjlTg (CMV-IL3, CSF2, KITLG) 1Eav/MloySzJ, Stock #013062) were purchased from the Jackson Laboratory. Raji cells were transfected with a luciferase construct via lentivirus to create Raji-luc cells. NSGS is a triple transgenic strain expressing human IL3, GM-CSF and SCF combine the features of the highly immunodeficient NOD scid gamma (NSG) mouse. One day before the injection of Raji cells, mice were irradiated at a dose of 2 Gy in a CIXD Xstahl device. In high tumor burden experiments in FIG. 5, 10^6 Raji-luc cells were injected IV via tail vein. Six days later, tumor loads were assessed using a Xenogen instrument and 15×10^6 hCART19 cells or untransduced T-cells were injected IV. In low tumor burden experiments in FIG. 6, 2×10^5 Raji-luc cells were injected IV via tail vein. Four days later, tumor loads were assessed using a Xenogen instrument and 15×10^6 hCART19 cells were injected IV. Metyrosine was injected IP at 60 mg/kg/day for three days before the hCART19 injection. On the day of CART19 injection, a fourth dose of 60 mg/kg was given IP and the mice were subsequently injected four more times at daily intervals at 30 mg/kg.

C[C@](N)(Cc1ccc(O)cc1)C(=O)O [metyrosine, α-methyl-tyrosine]
in vivo CART cell expansion or tumor clearance: Neither metyrosine nor ANP substantially interfered
